Reference: ChEMBL document CHEMBL1157366 (Antimicrob Agents Chemother, 2007)

What follows are molecules tested against T1, Lethal factor (Bacillus anthracis) (UniProt P15917) (assay: Protection against Bacillus anthracis lethal toxin-mediated cytotoxicity in mouse RAW264.7 cells assessed as change in viability at 0.125 to 12.5 uM relative to toxin-treated control).
T1 sequence (whole entry): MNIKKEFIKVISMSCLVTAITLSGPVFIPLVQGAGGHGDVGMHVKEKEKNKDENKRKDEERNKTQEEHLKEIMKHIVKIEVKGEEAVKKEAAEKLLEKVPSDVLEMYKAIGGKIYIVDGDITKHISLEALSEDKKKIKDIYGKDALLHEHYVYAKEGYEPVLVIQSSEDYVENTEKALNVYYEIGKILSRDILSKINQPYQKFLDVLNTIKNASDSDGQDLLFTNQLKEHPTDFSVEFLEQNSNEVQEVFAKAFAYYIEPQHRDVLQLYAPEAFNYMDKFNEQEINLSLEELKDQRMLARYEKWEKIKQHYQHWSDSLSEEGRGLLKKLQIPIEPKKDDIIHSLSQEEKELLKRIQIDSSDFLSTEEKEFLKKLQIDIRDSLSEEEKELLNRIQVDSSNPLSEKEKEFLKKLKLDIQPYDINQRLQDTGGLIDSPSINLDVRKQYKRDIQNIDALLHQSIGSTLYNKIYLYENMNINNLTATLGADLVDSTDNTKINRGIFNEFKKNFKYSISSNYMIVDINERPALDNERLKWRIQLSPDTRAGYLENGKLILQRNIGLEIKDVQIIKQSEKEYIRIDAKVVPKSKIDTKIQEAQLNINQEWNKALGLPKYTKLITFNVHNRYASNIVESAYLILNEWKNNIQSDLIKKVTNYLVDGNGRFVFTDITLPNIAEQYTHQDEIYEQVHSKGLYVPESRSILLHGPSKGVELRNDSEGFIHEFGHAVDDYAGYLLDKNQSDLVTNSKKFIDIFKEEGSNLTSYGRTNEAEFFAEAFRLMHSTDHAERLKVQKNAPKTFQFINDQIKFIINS
Type: cell-based

Structure (SMILES)	fold change (FC)
CC(C)COCC(CN(Cc1ccccc1)c1ccccc1)N1CCCC1 (centres undefined) [BEPRIDIL]	8.8
CCCCCCCCCCCCC/C=C/[C@@H](O)[C@H](CO)N(C)C	6.4
CC1=C(C(=O)OC(C)C)[C@@H](c2cccc3nonc23)C([N+](=O)[O-])=C(C)N1	2.8
CN(C)CCCn1cc(C2=C(c3c[nH]c4ccccc34)C(=O)NC2=O)c2ccccc21	6.7
C[S+]([O-])c1ccc(-c2nc(-c3ccc(F)cc3)c(-c3ccncc3)[nH]2)cc1 (centres undefined)	4.3
CN(C(=O)Cc1ccc(Cl)c(Cl)c1)C1CCCCC1N1CCCC1 (centres undefined)	5.2
Oc1ccc(-c2nc(-c3ccc(F)cc3)c(-c3ccncc3)[nH]2)cc1	4.2
COC(=O)C1=C(C)NC(C)=C(C(=O)OCCN(C)Cc2ccccc2)C1c1cccc([N+](=O)[O-])c1 (centres undefined)	5.6
O=S(=O)(c1cccc2c(Cl)cccc12)N1CCCNCC1	2.8
